Compound potency records, mixed from different reports. Data source: NIAID ChemDB in PubChem.

Shared fields: tests in culture

Blank or dashed fields: not listed here.

structure	read by	cells	endpoint	organism	mutations	strain or isolate	dose	result
Oc1ccccc1C=Nc1ccccc1O	-	-	MIC99	Cryptococcus gattii	-	135L/03	-	11.3 µg/mL
N#Cc1cc(C#N)c2[nH]c3ccccc3n2c1=O	plaque count	HEP-2	EC50	Respiratory syncytial virus	-	-	-	1.5 µg/mL
CC[C@H]1OC(=O)[C@H](C)[C@@H](OC2C[C@@](C)(OC)[C@@H](O)[C@H](C)O2)[C@H](C)[C@@H](O[C@@H]2O[C@H](C)C[C@H](N(C)C)[C@H]2O)C(C)(O)C[C@@H](C)/C(=N\OCCCCc2ccccc2)[C@H](C)[C@@H](O)[C@]1(C)O	-	-	MIC	Mycobacterium avium complex	-	20039 (clarithromycin-susceptible)	-	1.56 µg/mL
CC(=O)NC[C@H]1CN(c2ccc(-c3cnn(C(c4ccccc4)(c4ccccc4)c4ccccc4)c3)c(F)c2)C(=O)O1	-	-	MIC	Staphylococcus epidermidis	-	UC12084 (methicillin-resistant)	-	>32 µg/mL
FC(F)(F)c1ccc(Cn2ccc3nc(-c4ccccc4)nc-3c2)cc1	cytopathic effect	MDBK	EC50	Bovine viral diarrhea virus	-	PE515	-	0.029 µg/mL
Nc1ccn(C(CF)CCCO)c(=O)n1	cytopathic effect	VERO	EC50	Tacaribe virus	-	-	-	>50 µg/mL
CC(=O)NC[C@H]1CN(c2ccc(-c3ccsc3)c(F)c2)C(=O)O1	-	-	MIC	Staphylococcus epidermidis	-	UC12084 (methicillin-resistant)	-	≤0.125 µg/mL
CCCCCCCCCCCC[N+](C)(C)COCC(C)CCC	-	-	MBC	Staphylococcus aureus	-	ATCC 6538	-	3.43 µM
N#Cc1cc(C(=O)O)c(=O)n2c1[nH]c1ccccc12	plaque count	HEP-2	EC50	Respiratory syncytial virus	-	LONG	-	>40 µg/mL
CCOC(=O)c1cnc(NCCCCNc2ccnc3cc(Cl)ccc23)nc1C	-	-	MIC99	Cryptococcus neoformans	-	ATCC 28957	-	1.4 µg/mL
Nc1nc(=O)n([C@H]2C[C@H](O)[C@@H](CO)O2)cc1/C=C\Cl	cytopathic effect	PRK	EC50	Equine herpesvirus 1	-	Kentucky (type 1)	-	>200 µg/mL
Fc1cccc(Cn2cnc3c(Nc4cccc(F)c4)nc(C(F)(F)F)nc32)c1	plaque count	M-HELA	EC50	Rhinovirus	-	Serotype 43	-	6.3 µM
COc1cc(O)c2c(=O)cc(-c3ccccc3)oc2c1CC=C(C)C	plaque count	LLC-MK2	inhibition	Dengue virus	-	Type 2/Mexican isolate	12 µM	53.9%
CC(=O)NC[C@H]1CN(c2ccc(-c3nsc(C(N)=O)n3)c(F)c2)C(=O)O1	-	-	MIC	Haemophilus influenzae	-	UC 30063	-	>16 µg/mL
CCCNNC(=O)O[C@H]1[C@H](O[C@@H]2[C@@H](C)[C@H](O[C@H]3C[C@@](C)(OC)[C@@H](OC(C)=O)[C@H](C)O3)[C@@H](C)C(=O)O[C@H](CC)[C@@](C)(O)[C@H](O)[C@@H](C)/C(=N/OCCCC3CCCCC3)[C@H](C)CC2(C)O)O[C@H](C)C[C@@H]1N(C)C	-	-	MIC	Mycobacterium avium complex	-	20039 (clarithromycin-susceptible)	-	0.78 µg/mL
Cc1cccc(NC(=S)Nc2ccc(S(=O)(=O)Nc3cc(C)on3)cc2)c1	syncytia	CEM174	EC50	SIV	-	-	-	2.1 µM
N#Cc1cc(NC(=O)c2ccccc2)c(=O)n2c1[nH]c1ccccc12	plaque count	VERO	EC50	Mumps virus	-	ECXH-3-11	-	0.6 µg/mL
C=CCc1ccc(O)c(OC)c1	turbidity	-	MIC90	Candida albicans	-	2434	-	475 µg/mL
NCCCC[C@H](NC(=O)[C@H](Cc1c[nH]c2ccccc12)NC(=O)[C@H](CCCCN)NC(=O)[C@@H](N)CCCCN)C(=O)O	-	-	inhibition	Cryptococcus neoformans	-	ATCC 32264	50 µM	0%
NC(=O)CCN(CCC(N)=O)S(=O)(=O)c1cccc(Nc2nc(Nc3cccc(S(=O)(=O)N(CCC(N)=O)CCC(N)=O)c3)nc(Nc3ccc(-c4ccc(Nc5nc(Nc6cccc(S(=O)(=O)N(CCC(N)=O)CCC(N)=O)c6)nc(Nc6cccc(S(=O)(=O)N(CCC(N)=O)CCC(N)=O)c6)n5)cc4S(=O)(=O)O)c(S(=O)(=O)O)c3)n2)c1	cytopathic effect	HEP-2	EC50	Respiratory syncytial virus	-	37335/TYPE A	-	0.25 µg/mL
COc1cccc(NC(=S)Nc2ccc(S(=O)(=O)Nc3cc(C)on3)cc2)c1	syncytia	CEM174	EC50	SIV	-	-	-	4 µM
Cc1ccc(C(C)C)cc1O	-	-	MLC	Aspergillus fumigatus	-	F07	-	0.16 µg/mL
CCCCCCCCCCCC[N+](C)(C)COCCCCCCCCC	-	-	MIC	Staphylococcus aureus	-	ATCC 6538	-	3.69 µM
c1ccc(-c2nc3ccn(CC4CCCCC4)cc-3n2)cc1	cytopathic effect	MDBK	EC50	Bovine viral diarrhea virus	-	PE515	-	0.027 µg/mL
CC[C@H]1OC(=O)[C@H](C)[C@@H](O[C@H]2C[C@@](C)(OC)[C@@H](OC(C)=O)[C@H](C)O2)[C@H](C)[C@@H](O[C@@H]2O[C@H](C)C[C@H](N(C)C)[C@H]2O)C(C)(O)C[C@@H](C)/C(=N\OCCc2cccs2)[C@H](C)[C@@H](O)[C@]1(C)O	-	-	MIC	Mycobacterium avium complex	-	20092 (clarithromycin-resistant)	-	12.5 µg/mL
CCCCCCCCCCCC[N+](C)(C)COC(CCC)CCC	-	-	MBC	Staphylococcus aureus	-	ATCC 6538	-	3.17 µM
CCNC/C=C\CNC/C=C\CNCCCCNC/C=C\CNCC	-	-	EC50	Encephalitozoon cuniculi	-	-	-	500 µM
Cc1cc(-c2cccc(S(=O)(=O)Nc3cc(NCC(C)C)c4n[nH]c(Cl)c4c3)c2)ccc1Cl	-	-	MIC	Streptococcus pyogenes	-	-	-	3.75 µM
CCCCCCCCCCCC[N+](C)(C)COC(CC)CCCCC	-	-	MBC	Staphylococcus aureus	-	ATCC33592	-	25.5 µM
Nc1nc2c(ccn2[C@@H]2C[C@H](CO)[C@@H](O)[C@@H]2O)c(=O)[nH]1	-	-	MIC	Sindbis virus	-	-	-	>100 µg/mL
CCCCCCCCCCCC[N+](C)(C)CSCCCCCC	-	-	MBC	Staphylococcus aureus	-	ATCC33592	-	26.3 µM
CCCCCCCCCCC(=O)O[C@H]1[C@H](C)OC(O[C@H]2[C@H](C)[C@@H](O[C@@H]3O[C@H](C)C[C@H](N(C)C)[C@H]3O)C(C)(O)C[C@@H](C)/C(=N\OCCCOc3ccccc3)[C@H](C)[C@@H](O)[C@](C)(O)[C@@H](CC)OC(=O)[C@@H]2C)C[C@@]1(C)OC	-	-	MIC	Mycobacterium avium complex	-	20039 (clarithromycin-susceptible)	-	3.13 µg/mL
CC(=O)NC[C@H]1CN(c2ccc(-c3ncon3)c(F)c2)C(=O)O1	-	-	MIC	Haemophilus influenzae	-	UC 30063	-	>16 µg/mL
O=C(NCc1ccc(Cl)cc1)c1c[nH]c2ccc(CCCO)cc2c1=O	plaque count	-	EC50	Rat cytomegalovirus	-	ATCC	-	0.3 µM
CCOC(=O)c1c(C)nc(NCCCCNc2ccnc3cc(Cl)ccc23)nc1-c1ccc(F)cc1	-	-	MIC99	Cryptococcus gattii	-	ATCC 24065	-	8 µg/mL
CCOC(=O)c1nc(-c2ccc(N3C[C@H](CNC(C)=O)OC3=O)cc2F)ns1	-	-	MIC	Staphylococcus epidermidis	-	UC12084 (methicillin-resistant)	-	>16 µg/mL
CCOC(=O)c1ccc(NC(=S)Nc2ccc(S(=O)(=O)Nc3cc(C)on3)cc2)cc1	syncytia	CEM174	EC50	SIV	-	-	-	5 µM
CCCCCCCC[N+](C)(C)COCCC(C)CCCC(C)C	-	-	MBC	Staphylococcus aureus	-	ATCC 6538	-	13.7 µM
Oc1ccccc1N=Cc1ccc(F)cc1	-	-	MIC99	Cryptococcus neoformans	-	28JF	-	11.3 µg/mL
O=C(NCc1ccc(Cl)cc1)c1c[nH]c2c(F)cccc2c1=O	plaque count	-	EC50	Rat cytomegalovirus	-	ATCC	-	8.5 µM
CC(=O)NC[C@H]1CN(c2ccc(-c3ccn(CCC#N)n3)c(F)c2)C(=O)O1	-	-	MIC	Haemophilus influenzae	-	UC 30063	-	>64 µg/mL
COc1cc(OC)c(NC(=S)Nc2ccc(NC(=O)c3ccco3)cc2)cc1Cl	-	HFF	EC50	Rhesus cytomegalovirus	-	-	-	>20 µM
Oc1cccc(C=Nc2ccccc2O)c1	-	-	MIC99	Cryptococcus neoformans	-	27JF	-	4 µg/mL
CCCCCCCCCCCC[N+](C)(C)COCC	-	-	MBC	Staphylococcus aureus	-	ATCC33592	-	9.74 µM
NC(N)=Nc1ccc(-c2ccc(-c3ccc(N=C(N)N)cc3C(F)(F)F)o2)c(C(F)(F)F)c1	-	MDBK	inhibition	Bovine viral diarrhea virus	-	-	25 µM	>99%
Oc1ccccc1N=Cc1ccc2c(c1)OCO2	-	-	MIC99	Cryptococcus neoformans	-	ATCC 28957	-	5.7 µg/mL
CCCCOC(=O)c1ccc(NC(=S)Nc2ccc(S(=O)(=O)Nc3cc(C)on3)cc2)cc1	syncytia	CEM174	EC50	SIV	-	-	-	1.2 µM
O=c1[nH]c(=O)n([C@H]2C[C@H](O)[C@@H](CO)O2)cc1Br	hybridisation	ME	inhibition	Murine polyoma virus	-	-	0.053 µg/mL	31.1%
CCC	-	MDCK	EC50	Influenza A virus	-	AICHI/1/68(X-31) (H3)	-	>500 µM
CCOC(=O)c1cc(C#N)c2[nH]c3ccccc3n2c1=O	plaque count	VERO	EC50	Mumps virus	-	ECXH-3-11	-	100 µg/mL
CCNCCCCNC[C@H]1C[C@@H]1CNCCCCNCC	-	-	EC50	Encephalitozoon cuniculi	-	-	-	270 µM
N#CC(c1ccc(Cl)cc1)c1c(Cl)cc(-n2ncc(=O)[nH]c2=O)cc1Cl	-	-	inhibition	Toxoplasma gondii	-	RH	0.0025 µg/mL	49.7–64%
CCCCCCCCN=C(N)c1ccc(N2CCN(c3ccc(C(N)=NCCCCCCCC)cc3)CC2)cc1	ATP	-	EC50	Pneumocystis carinii	-	-	-	0.18 µg/mL
CC1CCC(C(=O)N(c2cc(C#CC(C)(C)C)sc2C(=O)O)C2CCC(O)CC2)CC1	luciferase	Huh7	fold resistance	Hepatitis C virus	M423I	Con1 (gt 1b)	-	5.6
Cc1cn(CCCC(O)CF)c(=O)[nH]c1=O	cytopathic effect	VERO	EC50	Tacaribe virus	-	-	-	>200 µg/mL
CCCCCCCCCN=C(N)c1ccc(N2CCN(c3ccc(C(N)=NCCCCCCCCC)cc3)CC2)cc1	ATP	-	EC50	Pneumocystis carinii	-	-	-	0.284 µg/mL
Cc1c(-c2ccc(C(=N)N)cc2)oc(-c2ccc(C(=N)N)cc2)c1C	-	MDBK	inhibition	Bovine viral diarrhea virus	-	-	25 µM	>99%
Cc1cc(NS(=O)(=O)c2ccc(NC(=S)NCCc3ccccc3)cc2)no1	syncytia	CEM174	EC50	SIV	-	-	-	4 µM
CCNCCCCNCCCCNCCCCNC/C=C\CNCCCCNCCCCNCCCCNCC	-	-	EC50	Encephalitozoon cuniculi	-	-	-	1.9 µM
Cc1cn(C(CF)CCCO)c(=O)[nH]c1=O	cytopathic effect	VERO	EC50	Tacaribe virus	-	-	-	>200 µg/mL
CC[C@H]1OC(=O)[C@H](C)[C@@H](OC2C[C@@](C)(OC)[C@@H](O)[C@H](C)O2)[C@H](C)[C@@H](O[C@@H]2O[C@H](C)C[C@H](N(C)C)[C@H]2O)C(C)(O)C[C@@H](C)/C(=N\OCCC2CCCCC2)[C@H](C)[C@@H](O)[C@]1(C)O	-	-	MIC	Mycobacterium avium complex	-	20039 (clarithromycin-susceptible)	-	3.13 µg/mL
CC(=O)NC[C@H]1CN(c2ccc(-c3noc(C)n3)c(F)c2)C(=O)O1	-	-	MIC	Haemophilus influenzae	-	UC 30063	-	>16 µg/mL
CCNC/C=C\CNC/C=C\CNCCCCNCC	-	-	EC50	Encephalitozoon cuniculi	-	-	-	410 µM
N=C(N)c1ccc(-c2ccc(-c3ccc(C(=N)N)cc3)o2)cc1	-	MDBK	inhibition	Bovine viral diarrhea virus	-	-	25 µM	>99%
COc1cc(OC)c(NC(=S)Nc2ccc(NC(C)=O)cc2)cc1Cl	-	HFF	EC50	Simian cytomegalovirus	-	Colburn	-	>20 µM
C=Cc1cn(OCCO)c(=O)[nH]c1=O	-	-	EC50	Duck hepatitis B virus	-	-	-	>10 µg/mL
c1cc(-c2ccc(-c3nc4ccc(C5=NCCN5)cc4[nH]3)o2)ccc1C1=NCCN1	-	MDBK	inhibition	Bovine viral diarrhea virus	-	-	5 µM	0%
CCCCCCCN=C(N)c1ccc(N2CCN(c3ccc(C(N)=NCCCCCCC)cc3)CC2)cc1	ATP	-	EC50	Pneumocystis carinii	-	-	-	0.034 µg/mL
CCCCCCCCNNC(=O)O[C@H]1[C@H](O[C@@H]2[C@@H](C)[C@H](O[C@H]3C[C@@](C)(OC)[C@@H](OC(C)=O)[C@H](C)O3)[C@@H](C)C(=O)O[C@H](CC)[C@@](C)(O)[C@H](O)[C@@H](C)/C(=N/OCCCC3CCCCC3)[C@H](C)CC2(C)O)O[C@H](C)C[C@@H]1N(C)C	-	-	MIC	Mycobacterium avium complex	-	20092 (clarithromycin-resistant)	-	12.5 µg/mL
Fc1ccccc1Cn1ccc2nc(-c3ccccc3)nc-2c1	cytopathic effect	MDBK	EC50	Bovine viral diarrhea virus	-	PE515	-	0.009 µg/mL
Cc1cc(NS(=O)(=O)c2ccc(NC(=S)Nc3ccc4c(c3)C(=O)OC4)cc2)no1	syncytia	CEM174	EC50	SIV	-	-	-	8.7 µM
Brc1ccc(Cn2ccc3nc(CSc4ccccc4)nc-3c2)cc1	cytopathic effect	MDBK	EC50	Bovine viral diarrhea virus	-	PE515	-	0.018 µg/mL
CC(=O)Nc1ccc(C(=O)O)cc1	-	-	inhibition	Pneumocystis carinii	-	-	1000 µM	100%
CC[C@H]1OC(=O)[C@H](C)[C@@H](OC(=O)C(C)C)[C@H](C)[C@@H](O[C@@H]2O[C@H](C)C[C@H](N(C)C)[C@H]2O)C(C)(O)C[C@@H](C)/C(=N\OCCCOc2ccccc2)[C@H](C)[C@@H](O)[C@]1(C)O	-	-	MIC	Mycobacterium avium complex	-	20039 (clarithromycin-susceptible)	-	3.13 µg/mL

Fold resistance: result on the changed form divided by that on wild type. MIC50, MIC90 and the like: level of inhibition, or share of isolates inhibited. Percent inhibition refers to the dose given; in toxicity tests it is the harm to the cells. Two numbers with a dash give a range or band. ECn is the concentration giving n% inhibition of infection, replication or growth. Conditions beyond the fields shown may differ between rows.